We go through two substances from article PMC9692485.

The target of the assay is human angiotensin-converting enzyme 2 (hACE2) (human) (UniProt Q9BYF1). The experiment in a line: ELISA; 200 ng recombinant hACE2 coated in a 96-well plate overnight at 4 °C; serially diluted RBD proteins (80, 20, 5, 1.25, 0.31, 0.078 and 0.02 μM) added for 2 h at room temperature; detected with anti-RBD mouse serum and anti-mouse IgG HRP, OD at 450 nm.

For “His-tag SARS-CoV-2 RBD (from UniProt P0DTC2 333-516) (domain or fragment; other documents disagree on this pair)”, the concentration for a half-maximal effect (EC50) (in general, the concentration giving half of the maximal effect) was determined as 7.51 µM and the OD450 at 20 μM RBD is 1.4 OD450.

For “tag-free SARS-CoV-2 RBD (from UniProt P0DTC2 333-516) (domain or fragment; other documents disagree on this pair)”, the EC50 was determined as 1.78 µM and the OD450 at 20 μM RBD was determined as 1.9 OD450.
